Compound potency records, mixed from different reports. Data source: NIAID ChemDB in PubChem.

Common to all: toxicity to cultured cells; cells: HeLa; measure: CC50

CCn: concentration that lowers growth or viability of the cells by n%. An empty or dashed field is not shown. Neighbouring rows are from separate reports.

structure	method	result
CCOC(=O)c1c(O)c2cc(-c3ccccc3OC)cnc2n(O)c1=O	-	<100 µM
CCOC(=O)[C@@]1(C)CC[C@]2(C)CC[C@]3(C)C(=CC(=O)[C@@H]4[C@@]5(C)CC/C(=N\OCc6cccc(Cl)c6)C(C)(C)[C@@H]5CC[C@]43C)[C@@H]2C1	MTT	23.41 µM
CSc1ccc(C(=O)CCCCOc2ccc(C3=NCCO3)cc2)cc1	-	>271 µM
O=C1c2ccccc2C(=O)c2c1ccc1[nH]c(C[C@@H]3O[C@H](CO)[C@@H](O)[C@H]3O)nc21	MTT	8.23 µM
O=c1c(Cc2ccc(Cl)cc2)coc2ccccc12	-	50 µM
Cc1csc(C(=O)CCCCOc2ccc(C(=O)O)cc2)c1	-	>314 µM
O=C1c2ccccc2C(=O)c2c1ccc1[nH]c([C@H]3NC[C@@H](O)[C@H]3O)nc21	MTT	20.34 µM
O=C(CCCCOc1ccc(C2=NCCO2)cc1)c1ccc(F)cc1	-	>293 µM
COc1cc(OC[C@H]2CC[C@@H](CO)O2)ncn1	-	≥250 µM
Cc1ccc(C(=O)CCCCOc2ccc(C3=NCCO3)cc2)cc1	-	>296 µM
Nc1nc(Cl)cc(OC[C@H]2O[C@H](COCc3ccccc3)[C@@H](OCc3ccccc3)[C@H]2OCc2ccccc2)n1	-	>250 µM
CC(C)(C)C1CN(C(=O)C(=O)c2c[nH]c3cccc(F)c23)CCN1C(=O)c1ccccc1	XTT	127 µM
O=C1c2ccccc2C(=O)c2c1ccc1[nH]c(CNCCCCN3[C@@H](CO)[C@@H](O)[C@H](O)[C@@H]3CO)nc21	MTT	124 µM
CN(Cc1ccccc1)C(=O)c1c(O)c2cccnc2n(O)c1=O	-	<100 µM
CC(C)CC1CN(C(=O)c2ccccc2)CCN1C(=O)C(=O)c1c[nH]c2cccc(F)c12	XTT	28 µM
COC(=O)C(Cc1ccc(OCCCCCCC(=O)c2ccc(C)s2)cc1)NC(C)=O	-	83 µM
CCC(C)Sc1n[nH]c(-c2ccc(C)cc2)n1	MTT	19.92 µg/mL
O=C(CCCCOc1c(Cl)cc(C2=NCCO2)cc1Cl)c1ccc(Cl)cc1	-	35 µM
O=C1/C(=C/c2ccccc2)COc2ccccc21	-	6.25 µM
CCOC(=O)c1ccc(OCCCCC(=O)c2ccc(Cl)c(Cl)c2)cc1	-	194 µM
COc1cnc(-c2cncnc2)c2[nH]cc(C(=O)C(=O)N3CCN(C(=O)c4ccccc4)CC3)c12	trypan blue	≤100 µM
CC(C)C1CN(C(=O)c2ccccc2)CCN1C(=O)C(=O)c1c[nH]c2cccc(F)c12	XTT	90 µM
CCOC(=O)[C@@]1(C)CC[C@]2(C)CC[C@]3(C)C(=CC(=O)[C@@H]4[C@@]5(C)CC/C(=N\OCc6cc(C)cc(C)c6)C(C)(C)[C@@H]5CC[C@]43C)[C@@H]2C1	MTT	42.24 µM
C#CCSc1n[nH]c(-c2cccc(C(F)(F)F)c2)n1	MTT	13.78 µg/mL
Cc1cc(CCCCCCCOc2ccc(C3=NCCO3)cc2)on1	-	37 µM
COc1cccc2[nH]cc(C(=O)C(=O)N3CCN(C(=O)c4ccccc4)C[C@H]3C)c12	XTT	>300 µM
Fc1ccc(-c2nc(=S)[nH][nH]2)cc1	MTT	33.82 µg/mL
Cc1ccsc1C(=O)CCCCOc1ccc(C2=NCCO2)cc1	-	291 µM
CCC1COC(c2ccc(OCCCCC(=O)c3ccc(C)s3)cc2)=N1	-	24 µM
CCOC(=O)c1ccc(OCCCCC(=O)c2ccc(Cl)cc2)cc1	-	>277 µM
O=C1c2ccccc2C(=O)c2c1ccc1[nH]c(CNCCCCCCCCN3[C@@H](CO)[C@@H](O)[C@H](O)[C@@H]3CO)nc21	MTT	6.8 µM
CCOC(=O)c1cc(Cl)c(OCCCCC(=O)c2ccc(Cl)cc2)c(Cl)c1	-	103 µM
Nc1nc(N)nc(OC[C@H]2CC[C@@H](COc3nc(N)nc(N)n3)O2)n1	-	>250 µM
Cn1cc(C(=O)CCCCOc2ccc(C3=NCCO3)cc2)cc1C=O	-	>282 µM
COc1cnc(-n2cc(F)cn2)c2[nH]cc(C(=O)C(=O)N3CCN(C(=O)c4ccccc4)CC3)c12	trypan blue	>100 µM
Clc1ccc(C2CCc3ccccc3O2)c(Cl)c1	-	25 µM
C1=CCC2(CC1)COC(c1ccco1)OC2	MTT	>500 µg/mL
O=C(CCCCOc1ccc(C2=NCCO2)cc1)c1ccc(Cl)s1	-	>271 µM
Cc1ncnn1-c1ncc(F)c2c(C(=O)C(=O)N3CCN(C(=O)c4ccccc4)CC3)c[nH]c12	trypan blue	>100 µM
CC1CN(C(=O)c2ccccc2)CCN1C(=O)C(=O)c1c[nH]c2cccc(F)c12	XTT	>300 µM
Nc1ccnc(OC[C@H]2CC[C@@H](COCc3ccccc3)O2)n1	-	≥250 µM
CCOC(=O)[C@@]1(C)CC[C@]2(C)CC[C@]3(C)C(=CC(=O)[C@@H]4[C@@]5(C)CC/C(=N\OCc6ccccc6)C(C)(C)[C@@H]5CC[C@]43C)[C@@H]2C1	MTT	24.65 µM
COc1cc(OC[C@H]2CC[C@@H](COCc3ccccc3)O2)ncn1	-	67 µM
CCOC(=O)c1cnc2c(c1)c(O)c(C(=O)NCc1ccccc1)c(=O)n2O	-	<100 µM
COCc1ncn(-c2ncc(OC)c3c(C(=O)C(=O)N4CCN(C(=O)c5ccccc5)[C@H](C)C4)c[nH]c23)n1	trypan blue	>100 µM
Nc1nc(N)nc(OC[C@H]2CC[C@@H](COCc3ccccc3)O2)n1	-	>250 µM
Cc1ccc(CCCCCOc2ccc(C3=NCCO3)cc2)s1	-	>303 µM
CCOC(=O)[C@@]1(C)CC[C@]2(C)CC[C@]3(C)C(=CC(=O)[C@@H]4[C@@]5(C)CC/C(=N\OCc6c(C)noc6C)C(C)(C)[C@@H]5CC[C@]43C)[C@@H]2C1	MTT	12.27 µM
Cc1ccc(C(=O)CCCCOc2ccc(C3=NCC(C)O3)cc2)s1	-	210 µM
CN(C)C(=O)COC(=O)Cc1ccc(OC(=O)c2ccc(N=C(N)N)cc2)cc1.COS(=O)(=O)O	MTT	>500 µg/mL
Oc1ccc(-c2nc(SCC3CC3)n[nH]2)cc1	MTT	31.17 µg/mL
COc1cnc(-n2cc(C)nn2)c2[nH]cc(C(=O)C(=O)N3CCN(C(=O)c4ccccc4)[C@H](C)C3)c12	trypan blue	>100 µM
CCOC(=O)[C@@]1(C)CC[C@]2(C)CC[C@]3(C)C(=CC(=O)[C@@H]4[C@@]5(C)CC/C(=N\OCC6CCOCC6)C(C)(C)[C@@H]5CC[C@]43C)[C@@H]2C1	MTT	30.31 µM
COc1ccc(/C=C2\COc3ccccc3C2=O)cc1	-	6.25 µM
CN1CCN(c2cc(=O)n(O)c3ncccc23)CC1=O	-	<100 µM
Nc1nc(OC[C@H]2CC[C@@H](COCc3ccccc3)O2)c2[nH]cnc2n1	-	203 µM
O=C(NCC1CCNCC1)c1c(O)c2cccnc2n(O)c1=O	-	<100 µM
O=C(C(=O)N1CCN(C(=O)c2ccccc2)CC1)c1c[nH]c2c(-n3nccn3)ccnc12	trypan blue	>100 µM
Cc1csc(C(=O)CCCCOc2ccc(C3=NCCO3)cc2)c1	-	73 µM
COc1cnc(-n2cnc(N)n2)c2[nH]cc(C(=O)C(=O)N3CCN(C(=O)c4ccccc4)[C@H](C)C3)c12	trypan blue	>100 µM
O=c1c(-c2ccc(F)cc2)c(O)c2cccnc2n1O	-	<100 µM
CCCCCCCCCCCCCCCCO[C@H]1N([C@H]2C[C@H](N=[N+]=[N-])[C@@H](CO)O2)C(=O)NC(=O)[C@]1(C)Br	MTT	>500 µg/mL
CCOC(=O)c1cc(Cl)c(OCCCCC(=O)c2ccc(OC)cc2)c(Cl)c1	-	40 µM

7 of the rows above, restated:

structure | method | result
Cc1csc(C(=O)CCCCOc2ccc(C3=NCCO3)cc2)c1 | - | 73 µM
O=C1c2ccccc2C(=O)c2c1ccc1[nH]c([C@H]3NC[C@@H](O)[C@H]3O)nc21 | MTT | 20.34 µM
CN(Cc1ccccc1)C(=O)c1c(O)c2cccnc2n(O)c1=O | - | <100 µM
COc1cc(OC[C@H]2CC[C@@H](COCc3ccccc3)O2)ncn1 | - | 67 µM
Cc1csc(C(=O)CCCCOc2ccc(C(=O)O)cc2)c1 | - | >314 µM
COc1cccc2[nH]cc(C(=O)C(=O)N3CCN(C(=O)c4ccccc4)C[C@H]3C)c12 | XTT | >300 µM
CN1CCN(c2cc(=O)n(O)c3ncccc23)CC1=O | - | <100 µM